A mixed list of measured activities; the numbers were collected in NIAID ChemDB.

Common to all: tests on isolated targets; species: HIV-1; target: Reverse transcriptase

ICn: concentration for n% inhibition. Neighbouring rows are from separate reports. Blank or dashed fields: not listed here.

| smiles | strain | method | endpoint | changes | result |
|---|---|---|---|---|---|
| COc1ccc(/C=C/NC(=O)Nc2ccc(Cl)cn2)cc1OC |  | nucleotide incorporation | Ki | RT-L100I | 10 µM |
| CC(=O)O[C@H]1CC[C@]2(C)C3CC=C4C5[C@](C(=O)O)(CC[C@@H](C)[C@@]5(C)O)CC[C@@]4(C)[C@]3(C)CC[C@H]2C1(C)C | MC99 | RT activity / fluorescence | IC50 |  | 291 µM |
| Cc1cc(C)cc(Cc2[nH]c(=O)[nH]c(=O)c2C)c1 | IIIB | nucleotide incorporation | IC50 |  | >10 µM |
| Cc1cn([C@H]2C[C@H](N=[N+]=[N-])[C@@H](COP(=O)(O)OP(=O)(O)CP(=O)(O)O)O2)c(=O)[nH]c1=O | IIIB | nucleotide incorporation | IC50 |  | 7.9 µM |
| O=C(OC1[C@H](OC(=O)c2cc(O)c(O)c(O)c2)CC(O)(C(=O)O)C[C@H]1OC(=O)c1cc(O)c(O)c(O)c1)c1cc(O)c(O)c(O)c1 |  |  | Ki |  | 0.04 µM |
| Fc1cccc(F)c1[C@H]1SCc2nc3ccccc3n21 |  | nucleotide incorporation | IC50 |  | 14.2 µM |
| O=C(NCCNC(=O)c1cc2cc(O)c(O)cc2[nH]1)c1cc2cc(O)c(O)cc2[nH]1 |  | RT activity / fluorescence | IC50 |  | 37 µM |
| Fc1cccc(F)c1C1SCc2nc3ccccc3n21 |  | nucleotide incorporation | IC50 |  | 14.6 µM |
| O=c1cc(-c2ccccc2)oc2cc(O[C@H]3O[C@H](CO)[C@H](O)[C@H](O)[C@H]3O)c(OCc3ccccc3)c(O)c12 |  | RT activity | IC50 |  | >1000 µg/mL |
| COc1ccc(Sc2nc(Cc3c(F)cccc3F)c(C)c(=O)[nH]2)cc1 |  |  | IC50 | Y181I | >400 µM |
| CCN1c2ncc(CSc3ccccc3)cc2C(=O)N(C)c2ccc(Cl)nc21 |  | nucleotide incorporation / radiometric | IC50 | RT-Y181C | <1 µM |
| CC(C)=CCN1Cc2cccc3[nH]c(=S)n(c23)C[C@@H]1C |  |  | IC50 | RT-E138K | 0.83 µM |
| CCN1c2ncc(CS(=O)c3ccccc3)cc2C(=O)N(C)c2ccc(Cl)nc21 |  | nucleotide incorporation / radiometric | IC50 | RT-Y181C | <1 µM |
| Cc1c(Cc2c(F)cccc2F)nc(Sc2ccccc2)[nH]c1=O |  |  | IC50 | RT-K103N | >400 µM |
| CCN1c2ncc(CS(=O)(=O)c3ccccc3)cc2C(=O)N(C)c2ccc(Cl)nc21 | WT | nucleotide incorporation / radiometric | IC50 |  | <1 µM |
| Cc1cn([C@H]2C=C[C@@H](COP(=O)(O)OP(=O)(O)OP(=O)(O)O)O2)c(=O)[nH]c1=O |  |  | Ki |  | 0.0492 µM |
| CCN1c2ncc(COc3ccnc(C)c3)cc2C(=O)N(C)c2ccc(Cl)nc21 |  | nucleotide incorporation / radiometric | IC50 | RT-Y181C | <1 µM |
| O=C(O[C@@H]1CC(O)(C(=O)O)C[C@@H](OC(=O)c2cc(O)c(O)c(O)c2)C1O)c1cc(O)c(O)c(O)c1 |  |  | IC50 |  | 1.31 µM |
| Cc1cc(S(N)(=O)=O)ccc1NC(=O)COc1ccc(Cl)cc1C(=O)c1cc(Cl)cc(C#N)c1 | WT | fluorescence | IC50 |  | 0.0018 µM |
| CCN1c2ncc(COc3ccccc3O)cc2C(=O)N(C)c2ccc(Cl)nc21 |  | nucleotide incorporation / radiometric | IC50 | RT-Y181C | <1 µM |
| Nc1ccccc1NC(=O)CSc1sc(Cl)nc1-c1ccc(Br)cc1Br |  |  | IC50 |  | >355 µM |
| O=C(O)C1=C[C@@H](OC(=O)c2cc(O)c(O)c(O)c2)[C@@H](OC(=O)c2cc(O)c(O)c(O)c2)[C@H](OC(=O)c2cc(O)c(O)c(O)c2)C1 |  |  | Ki |  | 0.05 µM |
| CCN1c2ncc(C=O)cc2C(=O)N(C)c2ccc(Cl)nc21 | WT | nucleotide incorporation / radiometric | IC50 |  | >1 µM |
| CNc1nc(Nc2ccc(C)cc2)nc(Nc2ccc(C)cc2)n1 |  | nucleotide incorporation / radiometric | IC50 |  | >200 µM |
| Nc1ncnc2c1ncn2[C@@H]1O[C@H](COP(=O)(O)OP(=O)(O)OP(=O)(O)O)C[C@@H]1F |  | nucleotide incorporation | IC50 | RT-F77L F116Y Q151M | 178 µM |
| Cc1cc(C)cc(Cc2nc(OC3CCCCC3)[nH]c(=O)c2C)c1 | IIIB | nucleotide incorporation | IC50 |  | >10 µM |
| Fc1cccc(F)c1[C@@H]1SCc2nc3ccccc3n21 |  | nucleotide incorporation | IC50 |  | 489.1 µM |
| Cc1cc(C)cc(S(=O)(=O)c2c(C(=O)NNCCO)[nH]c3ccc(Cl)cc23)c1 |  | nucleotide incorporation / radiometric | IC50 | RT-L101I | 15 µM |
| C#Cc1ccc(Nc2nccc(Oc3c(C)cc(-c4cn(Cc5ccc(O)cc5)nn4)cc3C)n2)cc1 |  | RT activity / ELISA | IC50 |  | 0.04 µM |
| Cc1c(Cc2c(F)cccc2F)nc(N(C)C)[nH]c1=O | IIIB | nucleotide incorporation / radiometric | IC50 | RT-K103N | 10 µM |
| C#Cc1ccc(Nc2nccc(Oc3c(C)cc(-c4cn(-c5ccc(C(=O)O)cc5)nn4)cc3C)n2)cc1 |  | RT activity / ELISA | IC50 |  | 0.02 µM |
| CC(C)=CCOc1cc(NC(=S)c2ccoc2C)ccc1Cl |  | nucleotide incorporation | IC50 |  | 0.005 µg/mL |
| Cc1cc(C)cc(Cc2cc(=O)[nH]c(OCC(C)C)n2)c1 | IIIB | nucleotide incorporation | IC50 |  | 1 µM |
| CC(C)(C)NC(=O)[C@@H]1C[C@@H]2CCCC[C@@H]2CN1CC(O)C[C@@H](Cc1ccccc1)C(=O)N[C@H]1CCCC[C@@H]1NC(=O)c1ccc2ccccc2n1 |  |  | IC50 |  | 100 µM |
| O=c1cc(-c2ccccc2)oc2cc(O[C@H]3O[C@H](CO)[C@@H](O)[C@@H]3O)c(OCc3ccccc3)c(O)c12 |  | RT activity | IC50 |  | >1000 µg/mL |
| O=c1c2cccn2c2ccccc2n1CCNC(=S)Nc1ccc(Cl)cn1 |  | nucleotide incorporation | Ki | RT-L100I | 0.9 µM |
| C#C[C@]1(COP(=O)(O)OP(=O)(O)OP(=O)(O)O)O[C@@H](n2cc(F)c3c(N)nc(Cl)nc32)C[C@@H]1O |  | RT activity / nucleotide incorporation / luminescence | IC50 |  | 0.49 µM |
| Cc1cn([C@@H]2O[C@H](CO[Si](C)(C)C(C)(C)C)C3(OS(=O)(=O)C=C3N)[C@H]2O[Si](C)(C)C(C)(C)C)c(=O)n(C)c1=O |  |  | IC50 | RT-E138K | >100 µM |
| Cc1c(Cc2c(Cl)cccc2Cl)nc(Sc2ccc(C#N)cc2)[nH]c1=O |  |  | IC50 | Y181I | >400 µM |
| NC(=O)c1[nH]c2ccc(Cl)cc2c1Sc1ccccc1 |  | RT activity | IC50 |  | 0.01 µM |
| Cc1cn([C@H]2C[C@H](F)[C@@H](COP(=O)(O)OP(=O)(O)OP(=O)(O)O)O2)c(=S)[nH]c1=O |  |  | IC50 |  | 0.175 µM |
| COc1nc(Cc2cccc(C)c2)cc(=O)[nH]1 | IIIB | nucleotide incorporation | IC50 |  | >10 µM |
| COc1cc2c(ccc3c4cc(OC)c(OC)cc4c[n+](C)c23)cc1O |  | RT activity / radiometric | IC50 |  | 26.4 µM |
| CNC(=O)c1[nH]c2ccc(Cl)cc2c1Sc1ccccc1 |  | strand transfer | IC50 |  | 0.02 µM |
| Cc1cn([C@H]2C[C@H](N=[N+]=[N-])[C@@H](COP(=O)(O)CP(=O)(O)O)O2)c(=O)[nH]c1=O | IIIB | nucleotide incorporation | IC50 |  | 14 µM |
| C=C1[C@H](CO)[C@@H](O)C[C@@H]1n1cnc2c(=O)[nH]c(N)nc21 |  | absorbance | IC50 |  | 6.5 µM |
| O=c1cnc2ccccc2n1CCNC(=S)Nc1ccc(Br)cn1 |  | nucleotide incorporation | Ki | RT-Y181I | 2 µM |
| CC(C)[C@H](NS(=O)(=O)Cc1ccccc1)C(=O)N[C@@H](Cc1ccc(OCc2ccccc2)cc1)C(=O)C(F)(F)C(=O)NCc1ccccc1 |  |  | IC50 |  | 100 µM |
| CCN1c2ncc(CCOc3ccc(CCC(=O)O)c4ccccc34)cc2C(=O)N(C)c2ccc(C)nc21 |  | nucleotide incorporation / radiometric | IC50 | RT-V106A | >1 µM |
| CC(=O)OC[C@H]1O[C@@H](Oc2cc3oc(-c4ccccc4)cc(=O)c3c(OCc3ccccc3)c2OCc2ccccc2)[C@@H](OC(C)=O)[C@@H](OC(C)=O)[C@@H]1OC(C)=O |  | RT activity | IC50 |  | >1000 µg/mL |
| COc1ccc(Sc2nc(Cc3c(Cl)cccc3Cl)c(C)c(=O)[nH]2)cc1 | WT |  | IC50 |  | >400 µM |
| CC[C@H](C)[C@H](NC(=O)[C@H](Cc1ccccc1)C[C@@H](O)CN1C[C@H]2CCCC[C@H]2C[C@H]1C(=O)NC(C)(C)C)C(=O)NCc1nc2ccccc2[nH]1 |  |  | IC50 |  | 100 µM |
| C#Cc1ccc(Nc2nccc(Oc3c(C)cc(-c4cn(-c5cccc(C(=O)OC)c5)nn4)cc3C)n2)cc1 |  | RT activity / ELISA | IC50 |  | 0.05 µM |
| Nc1ncnc2c1ncn2[C@H]1C[C@H](O)[C@@H](COP(=O)(O)O)O1 |  | nucleotide incorporation / radiometric | IC50 |  | >10 µM |
| CC[C@H](C)[C@H](NC(=O)[C@H](Cc1ccccc1)C[C@H](O)CN1C[C@H]2CCCC[C@H]2C[C@H]1C(=O)NC(C)(C)C)C(=O)NCc1nc2ccccc2[nH]1 |  |  | IC50 |  | 100 µM |
| O=C(O)c1cc2cc(O)c(O)cc2[nH]1 |  | RT activity / fluorescence | IC50 |  | 82 µM |
| C#Cc1ccc(Nc2nccc(Oc3c(C)cc(-c4cn(CC(=O)OC)nn4)cc3C)n2)cc1 |  | RT activity / ELISA | IC50 |  | 0.39 µM |
| CC(C)=CCOc1cc(NC(=S)c2ccoc2C)ccc1Cl |  | nucleotide incorporation / radiometric | Ki |  | 0.004 µM |
| O=C(O)C1=CC(OC(=O)c2cc(O)c(O)c(O)c2)C(O)[C@H](O)C1 |  |  | IC50 |  | >333 µg/mL |
| C#Cc1ccc(Nc2nccc(Oc3c(C)cc(-c4cn(CCCC(=O)OC)nn4)cc3C)n2)cc1 |  | RT activity / ELISA | IC50 |  | 0.21 µM |

A second listing of 6 rows from above:

smiles	strain	method	endpoint	changes	result
Fc1cccc(F)c1[C@@H]1SCc2nc3ccccc3n21		nucleotide incorporation	IC50		489.1 µM
O=c1cnc2ccccc2n1CCNC(=S)Nc1ccc(Br)cn1		nucleotide incorporation	Ki	RT-Y181I	2 µM
O=C(O)C1=C[C@@H](OC(=O)c2cc(O)c(O)c(O)c2)[C@@H](OC(=O)c2cc(O)c(O)c(O)c2)[C@H](OC(=O)c2cc(O)c(O)c(O)c2)C1			Ki		0.05 µM
Cc1c(Cc2c(F)cccc2F)nc(N(C)C)[nH]c1=O	IIIB	nucleotide incorporation / radiometric	IC50	RT-K103N	10 µM
CC(C)=CCOc1cc(NC(=S)c2ccoc2C)ccc1Cl		nucleotide incorporation	IC50		0.005 µg/mL
Cc1c(Cc2c(F)cccc2F)nc(Sc2ccccc2)[nH]c1=O			IC50	RT-K103N	>400 µM